Pooled drug test results. Numbers come from NIAID ChemDB, via PubChem.

All rows: cytotoxicity tests; cells: MT-4; read by: MTT; read-out: CC50

CCn: concentration that lowers growth or viability of the cells by n%. Lines come from different laboratories, so protocols vary.

| SMILES | result |
|---|---|
| CCN1CC(=O)Nc2ccc(Cl)cc2S1(=O)=O | >200 µM |
| CN(C)CCN1C(=O)C2C3C=CC(C3=C(c3ccccc3)c3ccccc3)C2C1=O | 26 µM |
| Cc1cnc(Nc2ccc(C#N)cc2)nc1Cc1c(F)cccc1F | >74.33 µM |
| S=C(NCc1ccco1)Nc1nc2ccccc2s1 | 67 µM |
| CCc1c(NC)nc(Nc2ccc(C#N)cc2)nc1Oc1ccc2cc(Br)ccc2c1Br | 64.34 µM |
| CCC(c1ccccc1OC)c1c(C)c(=O)[nH]c(=O)n1COCc1ccccc1 | 32.35 µM |
| Cc1cc(C#N)cc(C)c1Oc1nc(Nc2cccc(OS(=O)(=O)F)c2)nc2ccsc12 | 125 µM |
| CC1=C(C(=O)Nc2ccccc2Cl)C2=NN=C(N)C2C(=O)N1 | 42.6 µg/mL |
| O=C(Cc1cn([C@H]2C=C[C@@H](CO)O2)c(=O)[nH]c1=O)NCCCCCCCCCCNC(=O)c1c2ccccc2nc2ccccc12 | >10 µM |
| COc1ccc(NC(=S)NN2C(=O)[C@@H]3[C@H](C2=O)[C@]2(C)C=C[C@@]3(C(C)C)CC2)cc1 | 76 µM |
| COc1cc2nc(SCC(=O)Nc3ccc(C(F)(F)F)cc3)nc(Nc3c(Cl)cc(/C=C/C#N)cc3Cl)c2cc1OC | >50 µM |
| Cc1cc2ccccc2c(C)c1Oc1ccnc(Nc2ccc(C#N)cc2)n1 | 303 µM |
| Cc1ccccc1C(O)(c1c(C)c(=O)[nH]c(=O)n1COCc1ccccc1)C(C)C | 123 µM |
| CC(c1cc(=O)[nH]c(Nc2ccc(C#N)cc2)n1)c1c(F)cccc1F | >2.838 µM |
| S=C(NCc1ccco1)Nc1ccccc1Br | 100 µM |
| CCOC(=O)CNS(=O)(=O)c1cc(Cl)ccc1N | >200 µM |
| CCN(CC)CCN1C(=O)C2C3C=CC(C3=C(c3ccccc3)c3ccccc3)C2C1=O | 27 µM |
| CC1=C(C(=O)Nc2cccc(Cl)c2Cl)C2=NN=C(N)C2C(=O)N1 | 19 µg/mL |
| COc1ccc(CCN2C(=O)/C(=C\c3ccc(F)cc3)N(CCc3ccc(OC)c(OC)c3)C2=S)cc1OC | 18 µg/mL |
| CC(C)c1c(Cl)nc(Nc2ccc(C#N)cc2)nc1Oc1ccc2ccccc2c1Br | 30.58 µM |
| N#Cc1ccc(Nc2nc(Cl)cc(Cc3c(F)cccc3F)n2)cc1 | >2.803 µM |
| C=C(C)COCn1c(CC2CCCc3ccccc32)c(CC)c(=O)[nH]c1=O | 40 µM |
| CCCCCCCCCCCCCCCC(=O)OCC(COC(=O)CCCCCCCCCCCCCCC)OC(=O)CCC(=O)O[C@@H]1Cc2ccccc2[C@@H]1NC(=O)[C@H](Cc1ccccc1)C[C@H](O)CN1CCN(Cc2cccnc2)C[C@H]1C(=O)NC(C)(C)C | >100 µM |
| CCCCCCCCCC(=O)O[C@@]12[C@H](OCOC)[C@@H](C)[C@@]3(O)[C@@H](C=C(CO)C[C@]4(O)C(=O)C(C)=C[C@@H]34)[C@@H]1C2(C)C | 8.32 µg/mL |
| Fc1ccccc1NC(=S)Nc1nc2ccccc2s1 | 27 µM |
| CC(C)C[C@H](NC(=O)OC(C)(C)C)C(=O)O[C@@H]1Cc2ccccc2[C@@H]1NC(=O)[C@H](Cc1ccccc1)C[C@H](O)CN1CCN(Cc2cccnc2)C[C@H]1C(=O)NC(C)(C)C | >100 µM |
| CCC(c1ccccc1C)c1c(C)c(=O)[nH]c(=O)n1COCc1ccccc1 | 43.12 µM |
| C/C(=N\Nc1nc(-c2ccc(Br)cc2)cs1)c1ccc(Cl)c(Cl)c1 | 13.05 µM |
| S=C(Nc1ccccc1Br)NC1CCN(Cc2ccccc2)CC1 | 58 µM |
| COc1ccc(CCN2C(=O)/C(=C\c3ccc(N(C)C)cc3)N(CCc3ccc(OC)c(OC)c3)C2=S)cc1OC | 19.1 µg/mL |
| O=C1Nc2ccc(Cl)cc2[C@@](C#CC2CC2)(C(F)(F)F)O1 | 0.002 µM |
| O=C1CS/C(=N\c2nc3ccccc3s2)N1c1ccc(I)cc1 | 29 µM |
| CC(C)[C@]12C=C[C@](C)(CC1)[C@H]1C(=O)N(NC(=O)Nc3ccccc3)C(=O)[C@H]12 | 100 µM |
| Fc1cccc(Cn2cc(COc3nsnc3-c3cccc4ccccc34)nn2)c1 | 67 µM |
| S=C(Nc1ccc(I)cc1)NC1CCN(Cc2ccccc2)CC1 | 7 µM |
| CNc1nc(Nc2ccc(C#N)cc2)nc(Oc2ccc3ccccc3c2)c1C | 178 µM |
| COc1ccc(C(O)(c2c(C)c(=O)[nH]c(=O)n2COCc2ccccc2)C(C)C)cc1 | 90.18 µM |
| CC1=C(C)[C@]2(C)C(C)[C@@]1(C)[C@@H]1C(=O)N(N)C(=O)[C@@H]12 | >100 µM |
| Oc1ccccc1/C=N/Nc1nc(-c2ccc(Br)cc2)cs1 | 48.7 µM |
| CC(C)C[C@H](NC(=O)OC(C)(C)C)C(=O)O[C@H](CN1C[C@H]2CCCC[C@H]2C[C@H]1C(=O)NC(C)(C)C)[C@H](Cc1ccccc1)NC(=O)[C@H](CC(N)=O)NC(=O)c1ccc2ccccc2n1 | >100 µM |
| COc1c(-c2cc(C)n(C)n2)c(O)c(S(=O)(=O)Oc2ccc([N+](=O)[O-])cc2)c2occc12 | 140 µM |
| COc1cc2nc(S(=O)CC(=O)Nc3ccccc3C(F)(F)F)nc(Nc3c(Cl)cc(/C=C/C#N)cc3Cl)c2cc1OC | >192 µM |
| COc1ccc(Cl)cc1NC(=O)C1=C(C)NC(=O)C2C(N)=NN=C12 | 54.8 µg/mL |
| COc1ccc(CCN2C(=O)/C(=C\c3ccccc3Cl)N(CCc3ccc(OC)c(OC)c3)C2=S)cc1OC | 23.1 µg/mL |
| CC(C)=CCN(C(C)C(=O)O)S(=O)(=O)c1cc(Cl)ccc1[N+](=O)[O-] | ≥200 µM |
| COc1cccc(NC(=O)CS(=O)c2nc(Nc3c(Cl)cc(/C=C/C#N)cc3Cl)c3cc(OC)c(OC)cc3n2)c1 | >167 µM |
| CC1=C[C@@H]2[C@@H]3C(=O)N(N)C(=O)[C@@H]3[C@H]1C[C@@H]2C(C)C | >100 µM |
| CC(c1cc(N)nc(Nc2ccc(C#N)cc2)n1)c1c(F)cccc1F | 46.1 µM |
| O=C1CNS(=O)(=O)c2cc(Cl)ccc2N1 | ≥200 µM |
| CC(c1ccnc(Nc2ccc(C#N)cc2)n1)c1c(F)cccc1F | 37.5 µM |
| Cc1ccc(NC(=O)COc2nsnc2-c2cccc3ccccc23)c([N+](=O)[O-])c1 | 29 µM |
| CC(C)[C@]12C=C[C@](C)(CC1)[C@H]1C(=O)N(NC(=S)NC3CCCCC3)C(=O)[C@H]12 | 53 µM |
| COc1c(C(=O)/C=C(/C)Nc2ccc([N+](=O)[O-])cc2)c(O)c(S(=O)(=O)Oc2ccc([N+](=O)[O-])cc2)c2occc12 | 380 µM |
| N#Cc1ccc(Nc2nccc(Cc3c(F)cccc3F)n2)cc1 | >77.6 µM |
| CCCNc1c(N=Nc2ccc(Cl)cc2)c(N)nc(=O)n1C | 100 µM |
| COc1c(-c2cc(C)on2)c(O)c(S(=O)(=O)Oc2ccc(F)cc2)c2occc12 | 260 µM |
| CCNc1c(N=Nc2ccc(-c3ccc(OC)c(OC)c3)cc2)c(N)nc(=O)n1C | 23.13 µM |
| CCOCn1c(CC2CCCc3ccccc32)c(CC)c(=O)[nH]c1=O | 96 µM |
| Cc1c(Cc2c(F)cccc2F)nc(Nc2ccc(C#N)cc2)[nH]c1=O | >2.838 µM |
| C=C(C)CN1C(C)C(=O)Nc2ccc(Cl)cc2S1(=O)=O | ≥200 µM |
| COc1cc2nc(S(=O)CC(=O)Nc3ccccc3F)nc(Nc3c(Cl)cc(/C=C/C#N)cc3Cl)c2cc1OC | >208 µM |
| COc1ccc(-c2ccc(N=Nc3c(N)nc(=O)n(C)c3N(C)C)cc2)cc1OC | 10.42 µM |
| COc1c(C(=O)/C=C(/C)Nc2ccc(F)cc2)c(O)c(S(=O)(=O)Oc2ccc(F)cc2)c2occc12 | 340 µM |
| Fc1ccc(NC(=S)Nc2nc3ccccc3s2)cc1Cl | 14 µM |
| CC1=C(C(=O)Nc2ccc(Cl)cc2C)C2=NN=C(N)C2C(=O)N1 | 60.4 µg/mL |
| COc1ccc(CCN2C(=O)/C(=C\c3cccc(Cl)c3)N(CCc3ccc(OC)c(OC)c3)C2=S)cc1OC | 47.2 µg/mL |
| CC1=C(C)[C@]2(C)C(C)[C@@]1(C)[C@@H]1C(=O)N(NC(=O)NC3CCCCC3)C(=O)[C@@H]12 | 12 µM |
| Cc1c(O)cccc1C(=O)N[C@@H](CSc1ccccc1)[C@@H](CN1C[C@H]2CCCC[C@H]2C[C@H]1C(=O)NC(C)(C)C)OC(=O)CCCCOc1ccc(C[C@H](NC(=O)OC(C)(C)C)C(=O)O)cc1 | >100 µM |
| CCN(CC)c1c(N=Nc2ccc(-c3ccc(OC)c(OC)c3)cc2)c(N)nc(=O)n1C | 25.23 µM |
| COc1c(-c2cc(C)on2)c(O)c(S(=O)(=O)OC2CCCCC2)c2occc12 | 330 µM |
| COc1ccc(NC(=S)NN2C(=O)[C@H]3[C@H]4C=C(C)[C@H](C[C@@H]4C(C)C)[C@H]3C2=O)cc1 | 52 µM |
| Cc1c(OC(=O)CCCCOc2ccc(C[C@H](N)C(=O)O)cc2)cccc1C(=O)N[C@@H](CSc1ccccc1)[C@H](O)CN1C[C@H]2CCCC[C@H]2C[C@H]1C(=O)NC(C)(C)C | >100 µM |
| CCc1c(NC)nc(Nc2ccc(C#N)cc2)nc1Oc1ccc2cc(C#N)ccc2c1 | >59.52 µM |
| COc1cccc(C(C)c2c(C)c(=O)[nH]c(=O)n2COCc2ccccc2)c1 | >166 µM |
| CCN(CC)c1c(N=Nc2ccc(Cl)cc2)c(N)nc(=O)n1C | 100 µM |
| Cc1cc(C(C)(C)C)ccc1N1C(=O)CS/C1=N\c1nc2ccccc2s1 | 86 µM |
| CC(C)(C)NC(=O)[C@@H]1CN(Cc2cccnc2)CCN1C[C@H](C[C@@H](Cc1ccccc1)C(=O)N[C@H]1c2ccccc2C[C@H]1O)OC(=O)NCCCCOc1ccc(C[C@H](N)C(=O)O)cc1 | >100 µM |
| Cc1ccccc1C(c1c(C)c(=O)[nH]c(=O)n1COCc1ccccc1)C(C)C | 34.7 µM |
| COc1cc2nc(S(=O)CC(=O)Nc3cccc([N+](=O)[O-])c3)nc(Nc3c(Cl)cc(/C=C/C#N)cc3Cl)c2cc1OC | >83.2 µM |
| COC(=O)Cc1cn([C@H]2C=C[C@@H](CO)O2)c(=O)[nH]c1=O | 330 µM |
| CN(C)c1c(N=Nc2ccc(Cl)cc2)c(N)nc(=O)n1C | 28.24 µM |
| N#Cc1ccc(Nc2nccc(Oc3cc4ccc(Br)cc4cc3Br)n2)cc1 | >50.39 µM |
| O=[N+]([O-])c1ccc(-c2csc(N/N=C/c3ccccn3)n2)cc1 | 17.3 µM |
| Cc1ccc(C(O)(c2c(C)c(=O)[nH]c(=O)n2COCc2ccccc2)C(C)C)cc1 | 155 µM |
| O=C(NCCCc1cn([C@H]2C=C[C@@H](CO)O2)c(=O)[nH]c1=O)C(F)(F)F | >100 µM |
| CC(c1cc(Cl)nc(Nc2ccc(C#N)cc2)n1)c1c(F)cccc1F | >2.697 µM |
| Cc1ccnc2c1NC(=O)c1cccnc1N2C1CC1 | >4 µM |
| COc1cc2nc(S(=O)CC(=O)Nc3ccc(C#N)cc3)nc(Nc3c(C)cc(/C=C/C#N)cc3C)c2cc1OC | >221 µM |
| CC(C)=CCN1C(C)C(=O)Nc2ccc(Cl)cc2S1(=O)=O | >200 µM |
| COC(=O)[C@H](C)NP(=O)(OC[C@H]1C=C[C@@H](n2cc(CC(=O)NCCCCCCCCCCCCNC(=O)C(F)(F)F)c(=O)[nH]c2=O)O1)Oc1ccccc1 | >10 µM |
| CC(Oc1nsnc1-c1cccc2ccccc12)C(=O)Nc1ccccc1F | 52 µM |
| COc1ccc(C(C)c2c(C)c(=O)[nH]c(=O)n2COCc2ccccc2)cc1OC | >186 µM |
| O=C(COc1nsnc1-c1cccc2ccccc12)Nc1ccccc1[N+](=O)[O-] | ≥66 µM |
| CCc1c(Cl)nc(Nc2ccc(C#N)cc2)nc1Oc1ccc2cc(Br)ccc2c1Br | 224 µM |

A second listing of 6 rows from above:

SMILES,result
Cc1c(Cc2c(F)cccc2F)nc(Nc2ccc(C#N)cc2)[nH]c1=O,>2.838 µM
COc1ccc(CCN2C(=O)/C(=C\c3cccc(Cl)c3)N(CCc3ccc(OC)c(OC)c3)C2=S)cc1OC,47.2 µg/mL
C=C(C)CN1C(C)C(=O)Nc2ccc(Cl)cc2S1(=O)=O,≥200 µM
CCC(c1ccccc1C)c1c(C)c(=O)[nH]c(=O)n1COCc1ccccc1,43.12 µM
CC(Oc1nsnc1-c1cccc2ccccc12)C(=O)Nc1ccccc1F,52 µM
C=C(C)COCn1c(CC2CCCc3ccccc32)c(CC)c(=O)[nH]c1=O,40 µM